Experimental data as given in patent publication US20050239704.

Key:
[1] = biological target: SarR (partially purified native, ~12 kDa) (Staphylococcus aureus) (UniProt Q2FEJ8); assay: pull-down; conditions: DNA-Sepharose affinity column from S. aureus lysate; purified native protein
[2] = biological target: SarR (Staphylococcus aureus) (UniProt Q2FEJ8); assay: footprint; conditions: purified recombinant protein

“TCTTAAGACCTAAATTAATGTTATTTTTTAATAATTTACACCAAATTAA (double strand) [49-bp sarA P2 upstream fragment (nt 71-119)]”: binds [1]; binds ([2]; 30-100 ng SarR, 5 mM MgCl2, 1 mM CaCl2, 100 mM NaCl, pH 8.0, RT).

“TTACTAAATTAAAAAAATTA (double strand) [sarA P3 protected region]”: binds ([2]; protected region within P3 fragment nt 364-525, variant of sarA P3 promoter fragment (nt 364-525)).

The exact form of at least one protein or probe is not confirmed.
